Laboratory results: US20110098492A1, “CLEANING COMPOSITIONS CONTAINING MID-RANGE ALKOXYLATES” (priority 2008, published 2011)

Test system: microorganisms derived from activated sludge
Test: OECD 301 F biodegradation (manometric respirometry)
Conditions: aerobic

C9(PO)4(EO)8 [Example 10]
OECD 301F Biodegradation, %: 70%

2EH(PO)5(EO)9 [Example 8]
OECD 301F Biodegradation, %: 79%
